Data: PMC2654453
The exact form of at least one protein or probe is not confirmed. For some assays here: Where cells or extracts were used, other partners may take part. For some assays here: Tags and fusion partners may be left off the protein sequences shown.

Tests used:
[1] = biological target: T1, Tc38 (native, epimastigote whole protein extract) (Trypanosoma cruzi) (UniProt Q9GV75); assay: EMSA supershift; conditions: 10 mM Tris-HCl (pH not stated), 10 mM KCl, 10 mM MgCl2, 1 mM DTT, 1 mM EDTA, 5 mM spermidine, 0.2 ug poly[dI-dC], 20 uL, 1 ug extract, 1 ng probe, protein in an extract, label: 32P 5' end label (T4 PNK), single-stranded DNA
T1 sequence (looked up, limits assumed): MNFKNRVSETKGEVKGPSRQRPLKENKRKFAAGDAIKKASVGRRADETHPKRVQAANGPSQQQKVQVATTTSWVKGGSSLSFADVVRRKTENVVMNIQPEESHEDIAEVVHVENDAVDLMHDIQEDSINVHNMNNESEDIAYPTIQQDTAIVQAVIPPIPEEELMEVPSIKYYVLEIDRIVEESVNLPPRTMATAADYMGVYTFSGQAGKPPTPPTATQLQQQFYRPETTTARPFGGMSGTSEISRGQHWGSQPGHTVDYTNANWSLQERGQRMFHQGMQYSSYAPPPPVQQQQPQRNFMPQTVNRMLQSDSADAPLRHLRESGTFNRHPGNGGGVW

[2] = biological target: GST-Tc38 (Trypanosoma cruzi) (UniProt Q9GV75); assay: EMSA supershift; conditions: anti-Tc38 supershift; 10 mM Tris-HCl (pH not stated), 10 mM KCl, 10 mM MgCl2, 1 mM DTT, 1 mM EDTA, 5 mM spermidine, 0.2 ug poly[dI-dC], 20 uL, 1 ug extract, 1 ng probe; recombinant protein; protein details: GST; label: 32P 5' end label (T4 PNK); single-stranded DNA
[3] = anti-Tc38 supershift, anti-TcPuf6 does not

Sequence | binding result [1, 3] | binding result ([1]; anti-Tc38 supershifts TG1 and TG2, anti-TcPuf6 does not) | binding result [2]
TTAAATAGTAGTGTTGTTTAACCTTAAATAGTAGTGTTGTTTAACC [MAX] | binds | – | –
TGTGTGTGTGTGTGTGTGTGTGTGTGTGTGTGTGTGTGTG [TG (TG20, poly [dT-dG])] | – | binds | binds
GGGGTTGGTGTAGGGGTTGGTGTAGGGGTTGGTGTA [MIN] | binds | – | –
GGGTTAGGGTTAGGGTTAGGGTTAGGGTTAGGGTTA [TEL] | binds | – | –
